Experimental data taken from publication PMC8413711.

Biological target: SARS-CoV-2 RBD (SARS-CoV-2) (UniProt P0DTC2)
Test: SPR

BD-368-2
Kd: 169 pM
